PubChem BioAssay AID624099, ICCB-Longwood – 2012
The whole screen tested about 21,000 reagents; shown is a part drawn at random. 497 of them (2.4%) count as active. 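Higher z means weaker E2 silencing; only reporter increases were scored, and knock-downs that hurt cell survival may mask genuine repressor factors.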 Entries without a mark were called inactive.

Aim: 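Human genes that papillomavirus E2 requires to repress the HPV18 LCR promoter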 (primary screen)
Cells: human C33A cervical carcinoma cells (HPV-negative) stably expressing BPV1 E2 and an HPV18 LCR luciferase reporter
Reagent: siRNA pool against human genes, 40 nM
Time to read-out: 72 h
Measured: 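HPV18 LCR reporter light per well, converted to plate-wise z-scores that exclude control wells, and averaged over triplicate plates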
Scale: mean z-score and z-score: higher = stronger reporter signal, weaker E2 silencing
Rule for the call: 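Hit if mean z-score reaches 2 and two or more of three replicate z-scores also reach 2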

The opening 4 entries, ahead of the listing:
no.	gene	mean z-score	z-score, replicate A	z-score, replicate B	z-score, replicate C
1	TTTY5	-0.78	-1.05	-0.4	-0.89
2	LINC02875	-0.96	-0.86	-0.98	-1.05
3	PSMD12	0.14	0.23	0.01	0.18
4	MAMLD1	1.39	1.01	1.26	1.89

Main list, from the start:
no.	gene	mean z-score	z-score, replicate A	z-score, replicate B	z-score, replicate C
1	TTTY5	-0.78	-1.05	-0.4	-0.89
2	LINC02875	-0.96	-0.86	-0.98	-1.05
3	PSMD12	0.14	0.23	0.01	0.18
4	MAMLD1	1.39	1.01	1.26	1.89
5	FDX1	-0.26	-0.15	-0.41	-0.21
6	SRPRB	0.25	0.89	0.16	-0.28
7	OR51E1	-0.46	-0.38	-0.47	-0.53
8	ARL6IP1	-0.8	-0.82	-0.93	-0.66
9	SLC24A3	0.08	0.26	-0.26	0.25
10	LINC00466	-0.24	0.28	-0.94	-0.08
11	PCSK1	0.48	0.48	0.26	0.69
12	CYP39A1	-1.94	-1.1	-1.82	-2.9
13	NR2C1	-0.55	-0.59	-0.53	-0.53
14	CNPY4	1.88	2.08	1.87	1.67
15	FXN	0.75	0.49	0.97	0.79
16	WBP1	1.63	1.7	1.4	1.8
17	VEZF1	0.02	0.07	-0.39	0.36
18	EEF2	-1.13	-1.15	-1.11	-1.13
19	LINC01140	-0.46	-0.63	-0.37	-0.37
20	PGBDF	0.19	0.58	0.05	-0.07
21	SPCS3	0.07	0.09	-0.26	0.39
22	RAD54L2	1	0.84	1.81	0.35
23	GAREM1	-3.09	-3.28	-3.07	-2.93
24	ID3	-0.74	-0.81	-0.72	-0.7
25	ATP13A2	1.69	1.7	1.68	1.68
26	ZMAT5	-1.16	-1.36	-1.43	-0.7
27	LOC389286 (retired record)	1.58	1.84	1.46	1.45
28	ZNF841	0.32	0.36	0.35	0.24
29	CCDC62	-0.48	-0.74	-0.35	-0.34
30	LOC388890 (retired record)	0.55	0.56	0.51	0.57
31	ANKRD40CL	-1.07	-0.28	-0.88	-2.03
32	PDAP1	0.34	0.58	0.39	0.06
33	TRIP4	0.11	0.07	0.09	0.18
34	NAPG	-0.49	-0.67	-0.35	-0.45
35	TMIGD1	-1.44	-1.46	-1.47	-1.39
36	SACK1B	1	0.92	1.07	1.63
37	BARD1	-0.75	-0.64	-0.65	-0.96
38	ACTBL2	0.19	0.54	0.16	-0.12
39	ARHGAP11A	1.84	1.88	1.81	1.82
40	OVGP1	-0.72	0.01	0.08	-2.26
41	OR2M5	-0.75	-0.29	-1.03	-0.93
42	PCDHGA3	1.26	1.25	1.27	
43	SPMIP11	-0.7	-0.57	-0.67	-0.87
44	ZFP69B	-0.61	-0.47	-0.58	-0.78
45	RIMS3	-1.63	-1.71	-1.73	-1.44
46	NBPF5P	-1.93	-1.87	-2.07	-1.84
47	FRMPD3	0.16	0.16	0.21	0.1
48	ZNF559	0.44	0.49	0.33	0.52
49	YIF1B	0.69	0.95	0.26	0.86
50	PSG11	0.87	0.79	0.78	1.05
51	TCAIM	1.02	1.34	0.71	
52	PLCH2	-0.51	-0.69	-0.57	-0.28
53	LINC02694	1.6	1.55	1.61	1.63
54	HCCAT5	0.22	0.31	0.15	0.19
55	CYP4F3	0.34	0.42	0.45	0.15
56	KCNG2	0.51	0.82	0.36	0.34
57	IGF2-AS	-0.28	-0.16	-0.33	-0.33
